{
  "source": "PubChem BioAssay AID1159583",
  "about": "(ICCB-Longwood Screening Facility, Harvard Medical School, 2016)",
  "note": "Only a part is listed here, and it is no random draw. Active and inactive are the calls of the source. No stated cut-off is given here; in the data, active means fluorescence inhibition mostly above about 23% (no sharp cut-off); inactive means mostly below about 17%.",
  "data": [
    {"assay": "hypoxia reporter signal reduction in M. tuberculosis – fluorescence, absorbance growth readout, primary screen (AID 1159583)", "settings": "M. tuberculosis hypoxia-regulated fluorescent reporter, active compounds read high, concentration not given here", "values": [
      {"compound": "O=[N+]([O-])c1cc([N+](=O)[O-])c(NCC2CCS(=O)(=O)C2)c([N+](=O)[O-])c1", "note": "(centres undefined)", "fluorescence inhibition": "inactive: -3.91%"},
      {"compound": "O=[As](O)(c1ccccc1)c1ccc(O)cc1", "fluorescence inhibition": "inactive: 45.1%"},
      {"compound": "O=P(Nc1nc2ccccc2s1)(c1ccccc1)c1ccccc1", "fluorescence inhibition": "inactive: 13.8%"},
      {"compound": "CCN(C(=NP(=O)(N1CCOCC1)N1CCOCC1)N1CCOCC1)c1ccc(OC)cc1", "fluorescence inhibition": "inactive: -5.78%"},
      {"compound": "COc1ccc(NP(C)(=O)Oc2ccccc2OC)cc1", "note": "(centres undefined)", "fluorescence inhibition": "inactive: 0.994%"},
      {"compound": "COc1ccc(N)c([N+](=O)[O-])c1[N+](=O)[O-]", "fluorescence inhibition": "inactive: -2.85%"},
      {"compound": "CC(C)C=NN=C(N)N[N+](=O)[O-]", "fluorescence inhibition": "inactive: 0.365%"},
      {"compound": "COc1ccc(OP(C)(=O)Nc2cccc(Br)c2)cc1", "note": "(centres undefined)", "fluorescence inhibition": "inactive: 18%"},
      {"compound": "CN(C)C1(CNC(=O)c2ccc(Cl)c(S(N)(=O)=O)c2)CCCCC1", "fluorescence inhibition": "inactive: 8.83%"},
      {"compound": "O=P(Nc1ccccn1)(c1ccc(Br)cc1)c1ccc(Br)cc1", "fluorescence inhibition": "inactive: 0.508%"},
      {"compound": "C=CCN1CCN(CCOC(=O)C(O)(c2ccccc2)c2ccccc2)CC1", "fluorescence inhibition": "inactive: 2.61%"},
      {"compound": "CCOP(C)(=S)SCC(=O)NC(C)(CC)C(=O)O", "note": "(centres undefined)", "fluorescence inhibition": "inactive: -4.85%"},
      {"compound": "CP(=O)(Nc1ccc(SC(F)(F)F)cc1)Oc1ccc(F)cc1", "note": "(centres undefined)", "fluorescence inhibition": "inactive: -5.17%"},
      {"compound": "CCNC(=S)N=C(N)N[N+](=O)[O-]", "fluorescence inhibition": "inactive: -1.56%"},
      {"compound": "O=P(Nc1nccs1)(c1ccccc1)c1ccccc1", "fluorescence inhibition": "inactive: 2.32%"},
      {"compound": "CC(C)C(=O)NC(Sc1ccccc1)C(Cl)(Cl)Cl", "note": "(centres undefined)", "fluorescence inhibition": "inactive: -1.56%"},
      {"compound": "CC1(CBr)Cn2c(nc3ccccc3c2=O)S1", "note": "(centres undefined)", "fluorescence inhibition": "inactive: 12.2%"},
      {"compound": "O=[As](O)(c1ccccc1Br)c1ccccc1Br", "fluorescence inhibition": "inactive: 11.8%"},
      {"compound": "COc1ccccc1CNC(=O)COC(=O)C(O)(c1ccccc1)c1ccccc1", "fluorescence inhibition": "inactive: 5.3%"},
      {"compound": "O=[N+]([O-])c1cc([N+](=O)[O-])c(-c2cnn(-c3ccccc3)c2)c([N+](=O)[O-])c1", "fluorescence inhibition": "inactive: 9.57%"},
      {"compound": "CC(C)(C)C(=O)NC(Sc1ncccn1)C(Cl)(Cl)Cl", "note": "(centres undefined)", "fluorescence inhibition": "inactive: 6.67%"},
      {"compound": "Clc1n[nH]nc1-c1nn[nH][15n]1", "fluorescence inhibition": "inactive: 1.78%"},
      {"compound": "CCOP(=O)(Nc1ccc(C)cn1)OCC", "fluorescence inhibition": "inactive: 6.05%"},
      {"compound": "O=[N+]([O-])c1cc([N+](=O)[O-])c(-n2nnc3ccccc32)c([N+](=O)[O-])c1", "fluorescence inhibition": "inactive: 0.957%"},
      {"compound": "O=P1(Nc2ccccn2)COc2ccccc2OC1", "fluorescence inhibition": "inactive: -83.1%"},
      {"compound": "O=[As](O)(c1cccs1)c1cccs1", "fluorescence inhibition": "inactive: 20.8%"},
      {"compound": "NS(=O)(=O)c1cccc(NC(=O)COC(=O)C(O)(c2ccccc2)c2ccccc2)c1", "fluorescence inhibition": "inactive: -0.292%"},
      {"compound": "O=P1(Nc2ccc(Br)cn2)COc2ccccc2OC1", "fluorescence inhibition": "inactive: 4.94%"},
      {"compound": "CCCOc1ccc(NP(C)(=O)Oc2ccc(Cl)cc2)cc1", "note": "(centres undefined)", "fluorescence inhibition": "inactive: -4.29%"},
      {"compound": "CP(=O)(Nc1ccc(SC(F)(F)F)cc1)Oc1ccccc1", "note": "(centres undefined)", "fluorescence inhibition": "inactive: 8.2%"},
      {"compound": "Nc1cccc([As](=O)(O)c2ccccc2)c1", "fluorescence inhibition": "inactive: 15.4%"},
      {"compound": "CN1CCCCC1COC(=O)C1(O)c2ccccc2CCc2ccccc21", "note": "(centres undefined)", "fluorescence inhibition": "inactive: 0.457%"},
      {"compound": "COc1ccccc1OP(C)(=O)Nc1c(C)cccc1C", "note": "(centres undefined)", "fluorescence inhibition": "inactive: 1.4%"},
      {"compound": "O=P1(Nc2ncccn2)COc2ccccc2OC1", "fluorescence inhibition": "inactive: -2.3%"},
      {"compound": "CCCC1OP(=O)(Nc2ccccc2)OCC1CC", "note": "(centres undefined)", "fluorescence inhibition": "inactive: 26.1%"},
      {"compound": "O=C(/C=C/c1ccccc1)OC1CN2CCC1CC2", "note": "(centres undefined)", "fluorescence inhibition": "inactive: 14%"},
      {"compound": "CCOC(=O)C(CC)C1=NC(C)(C)Cc2ccccc21.O=[N+]([O-])c1cc([N+](=O)[O-])c(O)c([N+](=O)[O-])c1", "note": "(centres undefined)", "fluorescence inhibition": "inactive: -1.61%"},
      {"compound": "CN(C)C1(CNC(=O)c2ccc(S(C)(=O)=O)cc2)CCCCC1", "fluorescence inhibition": "inactive: -0.77%"},
      {"compound": "O=[N+]([O-])c1cc([N+](=O)[O-])c(Nc2nnnn2CCO)c([N+](=O)[O-])c1", "fluorescence inhibition": "inactive: 21.3%"},
      {"compound": "COc1cc(C2NCCC3(OCCO3)C2(C)C)cc(OC)c1OC.O=[N+]([O-])c1cc([N+](=O)[O-])c(O)c([N+](=O)[O-])c1", "note": "(centres undefined)", "fluorescence inhibition": "inactive: -2.33%"},
      {"compound": "Cc1ccc(C(=O)OC2CN3CCC2CC3)cc1", "note": "(centres undefined)", "fluorescence inhibition": "inactive: 11.1%"},
      {"compound": "CC1CCC(C(C)C)C(OP(=O)(Nc2ccccn2)c2ccccc2)C1", "note": "(centres undefined)", "fluorescence inhibition": "inactive: 13.6%"},
      {"compound": "Cc1nn(-c2ccccc2)c2c1P(=O)(N1CCOCC1)N(C)C(c1ccccc1)=N2", "note": "(centres undefined)", "fluorescence inhibition": "inactive: 4.87%"},
      {"compound": "CC1=NCCc2c1[nH]c1ccccc21.O=[N+]([O-])c1cc([N+](=O)[O-])c(O)c([N+](=O)[O-])c1", "fluorescence inhibition": "inactive: 2.13%"},
      {"compound": "O=[N+]([O-])c1ccc2c(c1)nnn2O", "fluorescence inhibition": "inactive: -2.92%"},
      {"compound": "CN(C)C(=O)c1cc([N+](=O)[O-])cc2c1-c1c(cc([N+](=O)[O-])cc1[N+](=O)[O-])C2=O", "fluorescence inhibition": "inactive: 14%"},
      {"compound": "CCOP1(=S)c2c(C)nn(CCC#N)c2N=C(c2ccc(F)cc2)N1C", "note": "(centres undefined)", "fluorescence inhibition": "inactive: 1.35%"},
      {"compound": "N#CCCN(C(=O)COC(=O)C(O)(c1ccccc1)c1ccccc1)c1ccc(F)cc1", "fluorescence inhibition": "inactive: 1.7%"},
      {"compound": "Cc1ccc(NC(=NP(=O)(N2CCOCC2)N2CCOCC2)N2CCOCC2)cc1", "fluorescence inhibition": "inactive: -2.36%"}
    ]}
  ]
}
